Results as given in publication PMC5869396, “Structural Basis for the Specific Neutralization of Stx2a with a Camelid Single Domain Antibody Fragment” (2018).

Molecular target: biotinylated rStx2aB (rStx2aB with human IgA1 hinge and biotin acceptor domain) (E. coli O157:H7 strain EDL933)

“biotinylated rStx2aB (rStx2aB with human IgA1 hinge and biotin acceptor domain)” gave a stoichiometry N of 5.
